Assay results as given in patent US20160287666A1.

Biological target: human Nav1.7 (human), Q15858
Assay: cell-based or functional assay

GPQCQKWMQTCDRERKCCEGFVCTLWCRKKLG (modifications not checked) [NV1G1892] gave a Nav1.7 IC50 (nM), FLIPR Tetra membrane depolarization of 112 nM.
